{
  "source": "paper PMC3840871",
  "key": {"[1]": {"molecular_target": "NA of A/ck/VN/NCVD-295/2009 (I223T), clade 2.3.4 (Influenza A virus, UniProt S4U1V6, I203T)"}, "[2]": {"molecular_target": "NA of A/ck/VN/NCVD-283/2009 (I223T), clade 2.3.4 (Influenza A virus, UniProt S4U1V6, I203T)"}, "[3]": {"molecular_target": "NA of A/dk/VN/NCVD-712/2011 (V424I), clade 2.3.2.1 (Influenza A virus, UniProt U3N5P7, V404I)"}, "[4]": {"molecular_target": "NA of A/dk/VN/NCVD-714/2011 (V424I), clade 2.3.2.1 (Influenza A virus, UniProt U3N5P7, V404I)"}, "[5]": {"molecular_target": "NA of A/ck/VN/NCVD-296/2009 (I223T), clade 2.3.4 (Influenza A virus, UniProt S4U1V6, I203T)"}},
  "data": [
    {"molecule": "CC(=O)N[C@H]1[C@H]([C@H](O)[C@H](O)CO)OC(C(=O)O)=C[C@@H]1N=C(N)N", "values": [
      {"measurement": "IC50", "setting": "[1]", "value": 0.93, "unit": "nM"},
      {"measurement": "IC50", "setting": "[2]", "value": 0.77, "unit": "nM"}
    ]},
    {"molecule": "peramivir", "values": [
      {"measurement": "IC50", "setting": "[3]", "value": 0.26, "unit": "nM"},
      {"measurement": "IC50", "setting": "[1]", "value": 0.5, "unit": "nM"},
      {"measurement": "IC50", "setting": "[2]", "value": 0.49, "unit": "nM"},
      {"measurement": "IC50", "setting": "[4]", "value": 0.31, "unit": "nM"},
      {"measurement": "IC50", "setting": "[5]", "value": 0.52, "unit": "nM"}
    ]}
  ]
}
